Pooled drug test results. Numbers come from NIAID ChemDB, via PubChem.

All rows: tests in culture; agent: Human cytomegalovirus; method: plaque count; endpoint: EC50

Conditions beyond the fields shown may differ between rows. ECn: concentration that inhibits the pathogen or its effect by n%.

{"SMILES": "FC(F)(F)Oc1ccc(-c2cc3ccccn3c2)cc1", "cell line": "MRC-5", "strain": "AD169", "result": ">100 µM"}
{"SMILES": "NC(=O)c1c(Cl)c(-c2cccnc2)n2c1CCCC2", "cell line": "HEL", "strain": "Ganciclovir-resistant", "result": "0.16 µM"}
{"SMILES": "O=C(NCc1ccc(Cl)cc1)c1c[nH]c2c(F)cccc2c1=O", "strain": "DAVIS", "result": "5.1 µM"}
{"SMILES": "CC#Cc1cn([C@H]2C[C@H](O)[C@@H](CO)O2)c(=O)[nH]c1=O", "cell line": "MRC-5", "result": ">100 µM"}
{"SMILES": "Nc1nc2c(ncn2COC(CO)CO)c(=O)[nH]1", "cell line": "MRC-5", "strain": "AD169", "result": "3.31 µM"}
{"SMILES": "COC(=O)c1ccc2cc(-c3ccccc3)cn2c1", "cell line": "MRC-5", "strain": "AD169", "result": ">100 µM"}
{"SMILES": "Nc1nc2c(ncn2COC(CO)CO)c(=O)[nH]1", "cell line": "HELF", "strain": "HE", "result": "5.9 µM"}
{"SMILES": "Nc1nc(Cl)c2ncn(/C=C3/C[C@H]3CO)c2n1", "cell line": "HFF", "strain": "AD169", "result": "6.9 µM"}
{"SMILES": "Cn1cc(C(=O)NCc2ccc(Cl)cc2)c(=O)c2cc(CN3CCOCC3)ccc21", "cell line": "HFF", "strain": "C8706/13-1-1 (ganciclovir-resistant)", "result": "1.7 µM"}
{"SMILES": "COC(=O)C12CC3CC(C1)CC(N1C(=O)c4ccccc4C1=O)(C3)C2", "cell line": "HEL", "strain": "AD169", "result": ">20 µg/mL"}
{"SMILES": "CCOP(=O)(O)CCC(CO)OCn1cnc2c(=O)[nH]c(N)nc21", "cell line": "MRC-5", "strain": "AD169", "result": "7 µg/mL"}
{"SMILES": "CCCCCCCCCCCCCCCCOCCCOP(=O)(O)CO[C@H](CO)Cn1ccc(N)nc1=O", "cell line": "MRC-5", "strain": "WILD TYPE", "result": "0.0009 µM"}
{"SMILES": "CCCCCCOC(=O)c1ccc2cc(-c3ccccc3)cn2c1", "cell line": "MRC-5", "strain": "AD169", "result": ">100 µM"}
{"SMILES": "Nc1cccc2c1C(=O)N(C13CC4CC(CC(C4)C1)C3)C2=O", "cell line": "HEL", "strain": "AD169", "result": ">0.8 µg/mL"}
{"SMILES": "CN(C)c1cccc2c(S(=O)(=O)Nc3ccc(NC(=O)C(C)(C)CO)cc3)cccc12", "strain": "ULM B (ganciclovir-resistant)", "result": "1.48 µM"}
{"SMILES": "c1ccn2cc(-c3cncs3)cc2c1", "cell line": "MRC-5", "strain": "AD169", "result": ">100 µM"}
{"SMILES": "Nc1nc2c(ncn2CCC(CO)CO)c(=O)[nH]1", "cell line": "HEL", "strain": "DAVIS", "result": ">50 µg/mL"}
{"SMILES": "Nc1nc2c(ncn2COC(CO)CO)c(=O)[nH]1", "strain": "C4 (D341E)", "result": "6.1 µM"}
{"SMILES": "CCCCCCCC/C=C\\CCCCCCCCOCCOP(=O)(O)CO[C@H](CO)Cn1ccc(N)nc1=O", "cell line": "HFF", "strain": "Toledo", "result": "0.001 µM"}
{"SMILES": "COc1ccccc1CNC(=O)C1=Cc2ccncc2CC1", "cell line": "HFF", "strain": "D-10 C4", "result": "6.2 µM"}
{"SMILES": "O=C1NCC2(C(=O)C3C=CC=CC13)C1CC3CC(C1)CC2C3", "cell line": "HEL", "strain": "AD169", "result": ">20 µg/mL"}
{"SMILES": "CCCCCCCCCCCCCCCCCCOCCOP1(=O)CO[C@@H](Cn2ccc(N)nc2=O)CO1", "cell line": "MRC-5", "strain": "759D100 drug-resistant mutant", "result": "0.015 µM"}
{"SMILES": "CCCCCCCCCCCCCCCCOP(=O)(O)CO[C@H](CO)Cn1ccc(N)nc1=O", "cell line": "HFF", "strain": "759rD100", "result": "0.08 µM"}
{"SMILES": "Nc1nc2c(ncn2/C=C2/CC2(CO)CO)c(=O)[nH]1", "cell line": "HFF", "strain": "Toledo", "result": "1.3 µM"}
{"SMILES": "CCCCCCCCCCCCCCCCCCOC[C@H](COP(=O)(O)CO[C@H](CO)Cn1ccc(N)nc1=O)OCc1ccccc1", "cell line": "HFF", "strain": "1117-R", "result": "0.01 µM"}
{"SMILES": "Nc1cccc2c1C(=O)N(C1C3CC4CC(C3)CC1C4)C2=O", "cell line": "HEL", "strain": "AD169", "result": ">100 µg/mL"}
{"SMILES": "OC[C@H]1O[C@@H](n2c(Br)nc3cc(Cl)c(Cl)cc32)[C@H](O)[C@@H]1O", "cell line": "HFF", "strain": "C8805/37-1-1 (drug-resistant)", "result": "1.4 µM"}
{"SMILES": "FC(F)(F)c1cc(Cl)c2cc(-c3ccccc3)cn2c1", "cell line": "MRC-5", "strain": "AD169", "result": ">100 µM"}
{"SMILES": "O=C1c2ccccc2C(=O)N1CCC1C2CC3CC(C2)CC1C3", "cell line": "HEL", "strain": "DAVIS", "result": ">100 µg/mL"}
{"SMILES": "Fc1cccn2cc(-c3ccccc3)cc12", "cell line": "MRC-5", "strain": "AD169", "result": ">100 µM"}
{"SMILES": "Nc1ccn(C[C@@H](CO)OCP(=O)(O)O)c(=O)n1", "cell line": "HFF", "strain": "TOWNE", "result": "0.3 µM"}
{"SMILES": "O=C(NCCc1ccccc1)C1=Cc2ccncc2CC1", "cell line": "MRC-5", "strain": "C8704", "result": "5.8 µM"}
{"SMILES": "Nc1ccn(C[C@@H](CO)OCP(=O)(O)O)c(=O)n1", "cell line": "HEL", "strain": "DER648 (ganciclovir cidofovir-resistant)", "result": "6.34 µM"}
{"SMILES": "CCCCCCCC/C=C\\CCCCCCCOCCCOP(=O)(O)CO[C@H](CO)Cn1ccc(N)nc1=O", "cell line": "HFF", "strain": "DAVIS", "result": "0.002 µM"}
{"SMILES": "Nc1nc2c(ncn2COC(CO)CO)c(=O)[nH]1", "strain": "48041 (DHPG-R)", "result": "50.4 µM"}
{"SMILES": "COc1cccc(N2CCN(C3=Nc4c(F)cccc4[C@H](CC(=O)O)N3c3cc(C(F)(F)F)ccc3OC)CC2)c1", "strain": "GDGrP53", "result": "0.0029 µM"}
{"SMILES": "O=C1c2cccc([N+](=O)[O-])c2C(=O)N1C1C2CC3CC(C2)CC1C3", "cell line": "HEL", "strain": "AD169", "result": ">100 µg/mL"}
{"SMILES": "Nc1nc2c(ncn2C[C@]2(CO)C[C@H]2CO)c(=O)[nH]1", "cell line": "HEL", "strain": "DAVIS", "result": "12 µg/mL"}
{"SMILES": "O=C1c2ccccc2C(=O)N1CC12CC3CC(CC(C3)C1)C2", "cell line": "HEL", "strain": "AD169", "result": ">100 µg/mL"}
{"SMILES": "Nc1nc2c(ncn2COC(CO)CO)c(=O)[nH]1", "cell line": "HEL", "strain": "U 9070", "result": "10.8 µg/mL"}
{"SMILES": "Nc1nc2c(ncn2C=C2CC2CO)c(=O)[nH]1", "cell line": "HFF", "strain": "Toledo", "result": "8.6 µM"}
{"SMILES": "O[C@@H]1[C@H](O)[C@H](O)CO[C@H]1n1c(Br)nc2cc(Cl)c(Cl)cc21", "cell line": "HFF", "strain": "C8914-6 drug-resistant", "result": "10 µM"}
{"SMILES": "CN(C)c1cccc2c(S(=O)(=O)Nc3ccc(NC(=O)C(C)(C)CO)cc3)cccc12", "strain": "TOWNE", "result": "1.03 µM"}
{"SMILES": "Clc1ccc(-c2cc3ccccn3c2)cc1Cl", "cell line": "MRC-5", "strain": "AD169", "result": ">100 µM"}
{"SMILES": "O=C1c2ccccc2[C@]2(O)C3C4C[C@H]5CC(C[C@H]3C5)C4N12", "cell line": "HEL", "strain": "AD169", "result": ">100 µg/mL"}
{"SMILES": "Nc1nc2c(ncn2C=C2CC2CO)c(=O)[nH]1", "strain": "VR6264 (ganciclovir-resistant)", "result": "4 µM"}
{"SMILES": "c1coc(-c2cc3ccccn3c2)c1", "cell line": "MRC-5", "strain": "AD169", "result": ">100 µM"}
{"SMILES": "Nc1nc(NC2CC2)c2ncn(C=C3CC3CO)c2n1", "cell line": "HFF", "strain": "C9208/5-4-2", "result": "4 µM"}
{"SMILES": "CC(C)Oc1ccccc1CNC(=O)c1ccc2cnccc2n1", "cell line": "MRC-5", "strain": "C8704", "result": "0.03 µM"}
{"SMILES": "Nc1nc2c(ncn2COC(CO)CO)c(=O)[nH]1", "cell line": "HFF", "strain": "VR4760R (drug-resistant)", "result": "830 µM"}
{"SMILES": "O=C(NCc1ccc(Cl)cc1)c1c[nH]c2c(F)cc(CCCO)cc2c1=O", "strain": "GDGrP53", "result": "0.3 µM"}
{"SMILES": "O=C(NCc1ccc(Cl)cc1)c1cn2c3c(cc(CN4CCOCC4)cc3c1=O)OC(c1cccnc1)C2", "cell line": "HFF", "strain": "AD169", "result": "5.8 µM"}
{"SMILES": "O=C1CCCC(C23CC4CC(C2)CC(N2C(=O)c5ccccc5C2=O)(C4)C3)C1", "cell line": "HEL", "strain": "AD169", "result": ">4 µg/mL"}
{"SMILES": "O=C(O)c1ccc2cc(-c3ccccc3)cn2c1", "cell line": "MRC-5", "strain": "AD169", "result": ">100 µM"}
{"SMILES": "CCCCCCCCCCCCCCCCCCOCCOP(=O)(O)CO[C@H](CO)Cn1ccc(N)nc1=O", "cell line": "MRC-5", "strain": "C9208/3-3-1", "result": "0.001 µM"}